Results of unrelated studies side by side (data: NIAID ChemDB).

All rows: growth or infection tests; species: Rhinovirus; cells: HeLa; measure: EC50

ECn: concentration that inhibits the pathogen or its effect by n%. Conditions beyond the fields shown may differ between rows.

SMILES,strain or isolate,method,result
Cc1nc(-c2cc(C)c(OCCCc3ccc(C(F)F)o3)c(C)c2)no1,serotypes 3 4 5 9 16 18 38 66 75 67,cytopathic effect,0.659 µg/mL
CS(=O)(=O)c1cccnc1Oc1ccc(C(=O)c2ccccc2)cc1,TYPE 1A,cytopathic effect,>10 µg/mL
CCCc1ccc(CCCOc2c(C)cc(-c3nnn(C)n3)cc2C)o1,serotypes 2 14 1A 1B 6 21 22 15 25 30 50 67 89 86 41,cytopathic effect,0.453 µg/mL
CS(=O)(=O)c1ccc(Oc2ccc(C(=O)c3ccccc3)cc2)nc1,TYPE 1A,cytopathic effect,>10 µg/mL
CCS(=O)(=O)c1ccc(NCc2ccc(Cl)c(Cl)c2)nc1,TYPE 64,cytopathic effect,6.3 µg/mL
Cc1cc(OCCCc2ccc(C=O)nn2)cc(C)c1-c1noc(C(F)F)n1,serotypes 3 4 5 9 16 18 38 66 75 67,cytopathic effect,0.05 µg/mL
CCS(=O)(=O)c1ccc(NCc2ccc(Cl)c(Cl)c2)nc1C#N,TYPE 64,cytopathic effect,0.6 µg/mL
CC(=O)c1ccc(CCCOc2ccc(-c3noc(C(F)F)n3)c(C)c2)nn1,serotypes 3 4 5 9 16 18 38 66 75 67,cytopathic effect,0.04 µg/mL
CN(C)c1ccc(Cc2ccc(S(C)(=O)=O)cn2)cc1,TYPE 64,cytopathic effect,>10 µg/mL
COC(=O)c1cc(CCCOc2c(C)cc(-c3noc(C)n3)cc2C)on1,Serotype 25,cytopathic effect,0.019 µg/mL
Cc1cc(CCCCCOc2c(Cl)cc(C3=NCCO3)cc2Cl)on1,TYPE 14,plaque count,0.82 µg/mL
CS(=O)(=O)c1ccc(Cc2ccc(Cl)c(Cl)c2)nc1,TYPE 64,cytopathic effect,0.3 µg/mL
COCc1cc(CCCOc2c(Cl)cc(-c3noc(C)n3)cc2Cl)on1,Serotype 1B,cytopathic effect,0.018 µg/mL
CS(=O)(=O)c1ccc(NCc2ccc(Cl)c(Cl)c2)nc1,TYPE 5,cytopathic effect,>10 µg/mL
CCOc1cc(CCCOc2c(C)cc(-c3noc(C)n3)cc2C)on1,Serotype 25,cytopathic effect,0.014 µg/mL

For reference, 2 entries again:

| SMILES | strain or isolate | method | result |
|---|---|---|---|
| Cc1nc(-c2cc(C)c(OCCCc3ccc(C(F)F)o3)c(C)c2)no1 | serotypes 3 4 5 9 16 18 38 66 75 67 | cytopathic effect | 0.659 µg/mL |
| COC(=O)c1cc(CCCOc2c(C)cc(-c3noc(C)n3)cc2C)on1 | Serotype 25 | cytopathic effect | 0.019 µg/mL |